In the assay the target is rat α6/α3β4 nicotinic acetylcholine receptor (rat) (UniProt P12392). In words: cell-based or functional assay.

As for TxID[S9E], the IC50 (half-blocking dose), ACh-evoked current was above 10 µM and the IC50 (half-blocking dose), ACh-evoked current, re-assay is above 10 µM.

TxID[S9K] registered an IC50 (half-blocking dose), ACh-evoked current above 10 µM; an IC50 (half-blocking dose), ACh-evoked current, re-assay above 10 µM; a block of ACh-evoked current at 10 µM peptide (fraction of the control current) below 0.25.

Substance TxID[S9D] returned an IC50 (half-blocking dose), ACh-evoked current above 10 µM and an IC50 (half-blocking dose), ACh-evoked current, re-assay above 10 µM.

Values taken from patent US20190330275A1, “NOVEL MUTANT OF a-CONOTOXIN PEPTIDE TxID, PHARMACEUTICAL COMPOSITION AND USE THEREOF” (priority 2016, published 2019).
